# Measurements reported in PubChem BioAssay AID624099 (ICCB-Longwood, 2012).
# Assay: 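Human genes that papillomavirus E2 requires to repress the HPV18 LCR promoter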 (primary screen)
# Cells: human C33A cervical carcinoma cells (HPV-negative) stably expressing BPV1 E2 and an HPV18 LCR luciferase reporter
# Reagents: siRNA pool against human genes, 40 nM
# Duration: 72 h
# Measurement: 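Per-well luciferase luminescence, z-scored on each plate against the plate mean and SD with control wells left out, then averaged across three replicate plates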
# Scale: mean z-score and z-score: higher = stronger reporter signal, weaker E2 silencing
# Hit rule: 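Mean z ≥ 2 together with z ≥ 2 in two or more of the three replicates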
# The deposit covers about 21,000 reagents; this is an unselected part. Over the whole deposit, 497 (2.4%) were called active. 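Higher z means weaker E2 silencing; only reporter increases were scored, and knock-downs that hurt cell survival may mask genuine repressor factors.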 Reagents against one gene are numbered here.
The first 2 records, ahead of the listing:
gene knocked down,reagent no.,mean z-score,"z-score, replicate A","z-score, replicate B","z-score, replicate C",Outcome
HBEGF (GeneID 1839),1,-0.95,-0.83,-1.01,-1.02,inactive
VPS13C (GeneID 54832),1,-0.77,-0.93,-0.99,-0.4,inactive

Main list, repeating the preview:
gene knocked down,reagent no.,mean z-score,"z-score, replicate A","z-score, replicate B","z-score, replicate C",Outcome
HBEGF (GeneID 1839),1,-0.95,-0.83,-1.01,-1.02,inactive
VPS13C (GeneID 54832),1,-0.77,-0.93,-0.99,-0.4,inactive
MYADML2 (GeneID 255275),1,-0.38,-0.66,-0.32,-0.15,inactive
GPATCH11 (GeneID 253635),1,1.02,1.22,0.85,1,inactive
CIT (GeneID 11113),1,1.98,1.95,2.31,1.68,inactive
LOC439938 (retired record) (GeneID 439938),1,0.57,0.47,1.47,-0.22,inactive
LINC00632 (GeneID 286411),1,1.46,1.17,1.52,1.69,inactive
FYB1 (GeneID 2533),1,0.8,0.98,0.52,0.89,inactive
ZNF12 (GeneID 7559),1,-0.11,-0.5,-0.1,0.28,inactive
ZNF12 (GeneID 7559),2,0.6,0.59,0.72,0.48,inactive
PLAC9P1 (GeneID 389033),1,0.22,0.22,0.09,0.37,inactive
GSX2 (GeneID 170825),1,0.47,0.49,1.02,-0.09,inactive
LCMT2 (GeneID 9836),1,0,0.14,-0.06,-0.07,inactive
ATG16L2 (GeneID 89849),1,0.49,0.04,0.32,1.12,inactive
LOC401132 (retired record) (GeneID 401132),1,-1.25,-0.72,-1.52,-1.52,inactive
LOC401101 (retired record) (GeneID 401101),1,-2.15,-1.99,-2.42,-2.02,inactive
TTC39A (GeneID 22996),1,1.29,1.24,1.64,0.99,inactive
HRH2 (GeneID 3274),1,0.03,0.07,0.25,-0.24,inactive
SLCO1C1 (GeneID 53919),1,-0.01,0.18,-0.07,-0.12,inactive
CNNM4 (GeneID 26504),1,1.16,1.17,1.01,1.29,inactive
KIF21B (GeneID 23046),1,0.25,0.36,0.04,0.35,inactive
TNRC18P3 (GeneID 340221),1,0.76,0.85,1.01,0.44,inactive
NUDT16L1 (GeneID 84309),1,1.51,1.66,1.23,1.65,inactive
RPRD1B (GeneID 58490),1,0.32,0.72,0.29,-0.04,inactive
LOC402245 (retired record) (GeneID 402245),1,0.14,0.01,0.23,0.18,inactive
ARHGEF35 (GeneID 445328),1,1.05,1.39,1.2,0.57,inactive
LNPK (GeneID 80856),1,0.17,0.32,0.02,0.16,inactive
CEL (GeneID 1056),1,-0.88,-0.79,-0.96,-0.9,inactive
PIP4K2C (GeneID 79837),1,0.22,0.25,0.15,0.25,inactive
NKRF (GeneID 55922),1,-0.8,-0.7,-0.91,-0.79,inactive
CTTN (GeneID 2017),1,-1,-1,-1.16,-0.83,inactive
NSMAF (GeneID 8439),1,0.28,0.18,0.23,0.44,inactive
COX6A2 (GeneID 1339),1,-1.04,-1.06,-1.21,-0.85,inactive
WDR19 (GeneID 57728),1,-0.88,-1.08,-0.22,-1.35,inactive
BTD (GeneID 686),1,-0.71,-0.31,-0.91,-0.9,inactive
ECSIT (GeneID 51295),1,-0.53,-0.21,-0.96,-0.42,inactive
NMUR2 (GeneID 56923),1,-0.66,-0.38,-0.79,-0.81,inactive
CDPF1 (GeneID 150383),1,-1.23,-0.84,-1.57,-1.29,inactive
DAXX (GeneID 1616),1,1.46,1.01,1.56,1.8,inactive
CYP3A7 (GeneID 1551),1,-0.59,-0.6,-0.82,-0.34,inactive
INO80C (GeneID 125476),1,-0.58,-0.45,-0.49,-0.82,inactive
PCDH20 (GeneID 64881),1,0.96,0.88,1.18,0.83,inactive
UGT1A6 (GeneID 54578),1,-0.09,-0.11,-0.27,0.1,inactive
PSMC1P4 (GeneID 345645),1,-0.17,-0.09,-0.13,-0.28,inactive
LINC01019 (GeneID 285577),1,0.69,0.76,0.54,0.76,inactive
WFDC3 (GeneID 140686),1,1.14,1.04,1.21,1.16,inactive
OAZ1 (GeneID 4946),1,0.04,-0.03,-0.04,0.19,inactive
CARD14 (GeneID 79092),1,-0.73,-0.39,-1.02,-0.78,inactive
MCRIP2 (GeneID 84331),1,-0.41,-0.44,-0.31,-0.48,inactive
LOC401078 (retired record) (GeneID 401078),1,0.24,0.56,0.08,0.09,inactive
HMGA1 (GeneID 3159),1,-1.19,-1.11,-1.36,-1.09,inactive
BIRC7 (GeneID 79444),1,-0.95,-1.22,-0.69,-0.92,inactive
CDK2AP2 (GeneID 10263),1,-0.91,-1.02,-0.92,-0.8,inactive
TULP1 (GeneID 7287),1,-0.02,0.33,-0.14,-0.26,inactive
RHO (GeneID 6010),1,0.13,0.47,-0.07,-0.02,inactive
LEFTY1 (GeneID 10637),1,-1.31,-0.92,-1.62,-1.39,inactive
TREML2 (GeneID 79865),1,-0.69,-0.24,-0.8,-1.03,inactive
